The values below are quoted from earlier work in article PMC9469084, “Unravelling the pharmacokinetics of aflatoxin B1: In vitro determination of Michaelis–Menten constants, intrinsic clearance and the metabolic contribution of CYP1A2 and CYP3A4 in pooled human liver microsomes” (Frontiers in Microbiology, 2022).

Usually Km stands for the substrate concentration at which the rate is half of its maximum.

The test system of the data set is human liver microsomes. Particulars: cited from earlier work.

As to `Cc1ncc2n1-c1ccc(Cl)cc1C(c1ccccc1F)=NC2` [MDZ, midazolam, reference compound], the Vmax range (earlier reported values for MDZ, ref Von Moltke et al., 1996, Hickman et al., 1998, Yuan et al., 2002, Bian et al., 2015, Kazmi, Nguyen et al., 2016, Gao et al., 2017) is 190.0–4,380 pmol/(mg.min). The Km (read-out: Km range, earlier reported values for MDZ, ref Von Moltke et al., 1996, Hickman et al., 1998, Yuan et al., 2002, Bian et al., 2015, Kazmi, Nguyen et al., 2016, Gao et al., 2017) is 1.9 to 9 µM.
